Measured values from several laboratories, pooled; numbers as filed in NIAID ChemDB.

Shared fields: enzyme or target tests; species: HIV; protein: Reverse transcriptase

ICn: concentration for n% inhibition. Blank or dashed fields: not listed here. Lines come from different laboratories, so protocols vary.

SMILES | conditions | mutations | method | endpoint | result
Cc1cc(Cc2ccc(Cl)c(Oc3cc(C#N)cc(C#N)c3)c2F)n[nH]c1=O | 40% human serum | WT |  | IC50 | 0.007 µM
Nc1nc2c(ncn2[C@H]2CC[C@@H](COP(=O)(O)OP(=O)(O)NP(=O)(O)OP(=O)(O)OC[C@H]3O[C@@H](n4cnc5c(N)ncnc54)[C@H](O)[C@@H]3O)O2)c(=O)[nH]1 |  | RT-D67N K70R | nucleotide incorporation / radiometric | IC50 | >41 µM
CC(C)=CCN1Cc2cccc3[nH]c(=S)n(c23)C[C@@H]1C |  |  | nucleotide incorporation | Ki | 0.32 µM
Cc1cn([C@H]2CC[C@@H](COP(=O)(O)OP(=O)(O)OP(=O)(O)OP(=O)(O)OC[C@@H]3CC[C@H](n4cc(C)c(=O)[nH]c4=O)O3)O2)c(=O)[nH]c1=O |  | RT-M41L T215Y | nucleotide incorporation / radiometric | IC50 | 3.3 µM
Fc1cccc(F)c1CC(=S)Nc1ccc(Cl)cn1 |  | K103N | radiometric | IC50 | >100 µM
Cc1cn([C@H]2CC[C@@H](COP(=O)(O)OP(=O)(O)OP(=O)(O)O)O2)c(=O)[nH]c1=O |  | RT-D67N K70R T215Y K219Q | nucleotide incorporation / radiometric | IC50 | 0.2 µM
Fc1cccc(F)c1CC(=S)NCCc1ccccn1 |  | Y181I | radiometric | IC50 | >100 µM
Nc1ccn([C@H]2CC[C@@H](COP(=O)(O)OP(=O)(O)OP(=O)(O)O)O2)c(=O)n1 |  | RT-F116Y Q151M | nucleotide incorporation / radiometric | IC50 | 5 µM
CC(C)=CCN1Cc2cccc3[nH]c(=S)n(c23)C[C@@H]1C |  | RT-V60T | nucleotide incorporation | IC50 | 1.84 µM
S=C(CCc1ccccc1)Nc1ccc(Cl)cn1 |  | L100I | radiometric | IC50 | >100 µM
Cc1cn([C@H]2CC[C@@H](COP(=O)(O)OP(=O)(O)OP(=O)(O)O)O2)c(=O)[nH]c1=O |  |  |  | Ki | 0.022 µM
Nc1ncnc2c1ncn2[C@H]1CC[C@@H](COP(=O)(O)OP(=O)(O)OP(=O)(O)OP(=O)(O)OC[C@@H]2CC[C@H](n3cnc4c(N)ncnc43)O2)O1 |  | RT-M41L T215Y | nucleotide incorporation / radiometric | IC50 | 2.9 µM
Nc1ncnc2c1ncn2[C@H]1CC[C@@H](COP(=O)(O)OP(=O)(O)OP(=O)(O)O)O1 |  | RT-L74V T215Y |  | Ki | 20 µM
Nc1ccn([C@@H]2CS[C@H](COP(=O)(O)OP(=O)(O)OP(=O)(O)O)O2)c(=O)n1 |  | RT-D67N K70R T215Y K219Q | radiometric | Ki | 0.595 µM
Nc1nc2c(ncn2[C@H]2CC[C@@H](COP(=O)(O)OP(=O)(O)OP(=O)(O)O)O2)c(=O)[nH]1 |  | RT-V75I F77L F116Y Q151M | nucleotide incorporation / radiometric | IC50 | 0.17 µM
S=C(Cc1ccccn1)Nc1ccc(Cl)cc1 |  | L100I | radiometric | IC50 | >100 µM

2 of the rows above, restated:

SMILES	conditions	mutations	method	endpoint	result
Cc1cc(Cc2ccc(Cl)c(Oc3cc(C#N)cc(C#N)c3)c2F)n[nH]c1=O	40% human serum	WT		IC50	0.007 µM
Nc1ccn([C@@H]2CS[C@H](COP(=O)(O)OP(=O)(O)OP(=O)(O)O)O2)c(=O)n1		RT-D67N K70R T215Y K219Q	radiometric	Ki	0.595 µM